Where two headings read alike, the source gives them in different places.
How the values were obtained:
Experiment in all cases: biochemical
[1] = molecular target: HLA-DQ DQA1*01:01/DQB1*05:01 (Homo sapiens, UniProt P01909+P01920, A157S/A45G/A70V/C70R/D89V/E106S/E118A/E183D/E77G/F83G/G63E/H151Q/H199R/H252R/H253Q/I129T/I235V/I88M/INS77G/K197Q/L107V/L117V/L119Y/L178F/L71W/L74F/L85Q/L91A/L98M/M46L/N214S/P87R/Q116E/Q256R/Q57E/Q76K/R102G/R240Q/R75S/R78G/S102Y/S185I/S41F/S97I/T103A/T109R/T121G/T122I/T172A/T86R/V148I/V68A/V73E/Y34C/Y58G/Y62H)
[2] = molecular target: HLA-DQ DQA1*03:01/DQB1*03:02 (Homo sapiens, UniProt P01909+P01920, A209T/A45G/C70Q/D89A/DUP78-78/E183D/E77G/F237L/G63E/H199R/I129T/K197E/L178F/L74F/L98V/Q57E/Q76R/S185I/S97I/T217I/T49S/V73L/Y58L); format: binding; conditions: read-out: Binding capacity/IC50 (nM) DQA1*03:01 DQB1*03:02
[3] = molecular target: HLA-DQ DQA1*01:04/DQB1*05:03 (Homo sapiens, UniProt P01909+P01920, A157S/A221T/A45G/A70V/C70R/D25G/E106S/E118A/E183D/E77G/F83G/G63E/H151Q/H199R/H252R/H253Q/I129T/I235V/I88M/INS77G/K197Q/L107V/L117V/L119Y/L178F/L71W/L74F/L85Q/L91A/L98M/M46L/N214S/P87R/Q116E/Q256R/Q57E/Q76K/R102G/R240Q/R75S/R78G/S102Y/S185I/S41F/S97I/T103A/T109R/T121G/T122I/T172A/T86R/V148I/V68A/V73E/Y34C/Y58G/Y62H)
[4] = molecular target: HLA-DQ DQA1*03:01/DQB1*03:01 (Homo sapiens, UniProt P01909+P01920, A209T/C70Q/DUP78-78/E183D/F237L/G63E/I129T/K197E/L178F/L74F/L98V/Q57E/Q76R/S185I/S97I/T49S/V73L); format: binding
[5] = molecular target: HLA-DQ DQA1*04:01/DQB1*04:02 (Homo sapiens, UniProt P01909+P01920, A45G/E106S/E183D/E77G/E98D/H199R/I129T/K197E/L107V/L178F/L91T/P87R/P88L/R102E/S185I/S97I/T103D/T217I/V99I/Y41F/Y58G)
[6] = molecular target: HLA-DQ DQA1*01:02/DQB1*05:02 (Homo sapiens, UniProt P01909+P01920, A157S/A45G/A70V/C70R/D89S/E106S/E118A/E183D/E77G/F83G/G63E/H151Q/H199R/H252R/H253Q/I129T/I235V/I88M/INS77G/K197Q/L107V/L117V/L119Y/L178F/L71W/L74F/L85Q/L91A/L98M/M46L/N214S/P87R/Q116E/Q158H/Q256R/Q76K/R102G/R240Q/R75S/R78G/S102Y/S185I/S41F/S97I/T103A/T109R/T121G/T122I/T172A/T86R/V148I/V229M/V68A/V73E/Y34C/Y58G/Y62H)
[7] = molecular target: HLA-DQ DQA1*01:03/DQB1*06:03 (Homo sapiens, UniProt P01909+P01920, A157G/A45G/C70R/E118A/E183D/E77G/F83G/G63E/H199R/H252R/H253Q/I129T/I235V/I88M/INS77G/K197Q/L117V/L119F/L178F/L71W/L74F/L85Q/L91A/L98M/N214S/P87R/Q116E/Q76K/R102G/R240Q/R64K/R75S/R78G/S102Y/S152A/S185I/S41F/S97I/T121G/T122I/T172A/T86R/V68A/V73E/Y34C/Y48F/Y58L/Y62H)
[8] = molecular target: HLA-DQ DQA1*02:01/DQB1*02:02 (Homo sapiens, UniProt P01909+P01920, A45G/A70V/C70K/D167G/D89A/E106A/E183D/E77G/E98D/F237L/F77L/G63E/H199R/I129T/K197E/L107V/L178F/L74F/N214S/P84L/P87L/Q57E/Q76R/R75H/S185I/S97I/T103K/T109R/T172A/T60S/V73L/V78E/V99I/Y48F/Y58L/Y62S/Y69I/Y79F); format: binding
[9] = molecular target: HLA-DQ DQA1*01:02/DQB1*06:02 (Homo sapiens, UniProt P01909+P01920, A157G/A45G/C70R/E118A/E183D/E77G/F83G/G63E/H151Q/H199R/H252R/H253Q/I129T/I235V/I88M/INS77G/K197Q/L117V/L119F/L178F/L71W/L74F/L85Q/L91A/L98M/N214S/P87R/Q116E/Q76K/R102G/R240Q/R75S/R78G/S102Y/S185I/S41F/S97I/T121G/T122I/T172A/T86R/V229M/V68A/V73E/Y34C/Y41F/Y58L); format: binding
[10] = molecular target: HLA-DQ DQA1*05:01/DQB1*02:01 (Homo sapiens, UniProt P01909+P01920, A45G/A70V/D89A/E106A/E77G/E98D/H199R/L107V/N214S/P84L/P87L/T103K/T109R/T172A/T60S/V78E/V99I/Y58L/Y62S/Y69I/Y79F)
[11] = read-out: Binding capacity/IC50 (nM) DQA1*03:01 DQB1*03:01
[12] = read-out: Binding capacity/IC50 (nM) DQA1*02:01 DQB1*02:02
[13] = read-out: Binding capacity/IC50 (nM) DQA1*01:02 DQB1*06:02

Row | SMILES | IC50 [1] | IC50 [2] | IC50 [3] | IC50 [4, 11] | IC50 [5] | IC50 [6] | IC50 [7] | IC50 [8, 12] | IC50 [9] | IC50 [10] | IC50 [4] | IC50 [8] | IC50 [9, 13]
1 | CC[C@H](C)[C@H](NC(=O)[C@H](CCCCN)NC(=O)[C@@H](NC(=O)[C@@H](NC(=O)[C@H](CCCNC(=N)N)NC(=O)[C@@H](NC(=O)[C@H](C)NC(=O)[C@H](CCCCN)NC(=O)[C@H](CC(C)C)NC(=O)[C@H](CC(C)C)NC(=O)[C@H](CCC(=O)O)NC(=O)[C@H](CCC(=O)O)NC(=O)[C@@H](N)CC(=O)O)C(C)C)[C@@H](C)CC)[C@@H](C)CC)C(=O)N[C@@H](CC(C)C)C(=O)N[C@@H](Cc1ccc(O)cc1)C(=O)N[C@@H](CCC(N)=O)C(=O)N[C@@H](CO)C(=O)N[C@@H](CC(N)=O)C(=O)N1CCC[C@H]1C(N)=O [rev(9-27)] | 602 nM | 24700 nM | 1.23 µM | 181 nM | 3.18 µM | 0.636 µM | 58 nM | 7000 nM | 52 nM | 1260 nM |  |  | 
2 | CC(C)C[C@H](NC(=O)[C@H](CCCCN)NC(=O)[C@@H](NC(=O)[C@H](CC(C)C)NC(=O)[C@@H]1CCCN1C(=O)[C@@H]1CCCN1C(=O)[C@@H](NC(=O)[C@H](CC(N)=O)NC(=O)[C@@H](NC(=O)[C@H](Cc1ccccc1)NC(=O)[C@H](CCC(=O)O)NC(=O)[C@H](Cc1c[nH]c2ccccc12)NC(=O)[C@@H](N)CCC(=O)O)C(C)C)[C@@H](C)O)C(C)C)C(=O)N[C@@H](Cc1c[nH]c2ccccc12)C(=O)N[C@@H](Cc1ccc(O)cc1)C(N)=O [RT(413-427)] | 6770 nM | > 30000 nM | 23 µM |  | 11.1 µM | 9.46 µM | 1660 nM |  | > 30000 nM | 791 nM | 3160 nM | 21500 nM | 
3 | CC[C@H](C)[C@H](NC(=O)[C@H](CC(=O)O)NC(=O)[C@H](CC(C)C)NC(=O)[C@@H](NC(=O)[C@H](CO)NC(=O)[C@@H](NC(=O)[C@@H]1CCCN1C(=O)[C@H](CO)NC(=O)[C@H](Cc1ccc(O)cc1)NC(=O)[C@H](CCSC)NC(=O)[C@H](CCCNC(=N)N)NC(=O)[C@@H](NC(=O)[C@@H](NC(=O)[C@H](CCCCN)NC(=O)[C@H](CC(N)=O)NC(=O)[C@@H](N)CC(C)C)[C@@H](C)CC)C(C)C)C(C)C)[C@@H](C)CC)C(N)=O [p24(138-153)] | 103 nM | > 30000 nM | 0.641 µM |  | 11.2 µM | 3.31 µM | 141 nM | 3680 nM | 301 nM | 493 nM | 924 nM |  | 
4 | CC[C@H](C)[C@H](NC(=O)[C@H](CC(C)C)NC(=O)[C@H](C)NC(=O)[C@@H](NC(=O)[C@H](CC(C)C)NC(=O)[C@H](C)NC(=O)[C@H](CC(C)C)NC(=O)[C@H](Cc1ccc(O)cc1)NC(=O)[C@H](CCC(N)=O)NC(=O)[C@H](CC(C)C)NC(=O)[C@H](CO)NC(=O)CNC(=O)[C@@H](N)C(C)C)[C@@H](C)O)C(=O)N[C@H](C(=O)N1CCC[C@H]1C(=O)N[C@@H](CCCCN)C(=O)N[C@@H](CCCCN)C(N)=O)[C@@H](C)O [vif(142-158)] | 1150 nM | 11000 nM | 7.94 µM | 260 nM | 1.21 µM | 7.77 µM | 1520 nM |  |  | 587 nM |  | 24500 nM | 431 nM
5 | CC(C)C[C@H](NC(=O)[C@H](CO)NC(=O)[C@H](CCCNC(=N)N)NC(=O)[C@H](CC(C)C)NC(=O)[C@H](CCC(=O)O)NC(=O)[C@H](CCC(=O)O)NC(=O)[C@@H](N)CO)C(=O)N[C@@H](Cc1ccc(O)cc1)C(=O)N[C@@H](CC(N)=O)C(=O)N[C@H](C(=O)N[C@H](C(=O)N[C@@H](C)C(=O)N[C@H](C(=O)N[C@@H](CC(C)C)C(=O)N[C@@H](Cc1ccc(O)cc1)C(=O)N[C@@H](CS)C(=O)N[C@H](C(=O)N[C@@H](Cc1c[nH]cn1)C(=O)N[C@@H](CCC(N)=O)C(N)=O)C(C)C)[C@@H](C)O)C(C)C)[C@@H](C)O [p17(72-90)] | 3160 nM | > 30000 nM | 6.16 µM | 2020 nM | 7.03 µM | 5.52 µM | 52 nM |  |  | 11300 nM |  | 3840 nM | 538 nM
6 | CC[C@H](C)[C@H](NC(=O)[C@H](C)NC(=O)[C@H](CCCCN)NC(=O)[C@H](CCCCN)NC(=O)CNC(=O)[C@H](CS)NC(=O)[C@@H](NC(=O)[C@H](CCC(=O)O)NC(=O)[C@@H](NC(=O)[C@H](CC(C)C)NC(=O)[C@@H](NC(=O)[C@H](CCC(N)=O)NC(=O)[C@H](CC(=O)O)NC(=O)[C@H](Cc1ccc(O)cc1)NC(=O)[C@H](CCC(N)=O)NC(=O)[C@H](CCCNC(=N)N)NC(=O)[C@@H](NC(=O)[C@H](CCCCN)NC(=O)[C@@H](NC(=O)[C@@H](N)Cc1ccccc1)[C@@H](C)CC)C(C)C)[C@@H](C)CC)[C@@H](C)CC)[C@@H](C)CC)C(=O)NCC(=O)N[C@H](C(=O)N[C@H](C(N)=O)C(C)C)[C@@H](C)O [protease(53-75)] | 83 nM | > 30000 nM | 2.7 µM |  | 7.13 µM | 0.403 µM | 2970 nM | 24400 nM |  | 4200 nM | 475 nM |  | 6270 nM

— PMC3445454, “Broad and Cross-Clade CD4^+ T-Cell Responses Elicited by a DNA Vaccine Encoding Highly Conserved and Promiscuous HIV-1 M-Group Consensus Peptides” (PLoS ONE, 2012)
